According to publication PMC12299546:
The exact form of at least one protein or probe is not confirmed.

Amino acid sequences for entries named in this document (tags omitted). A change or cut given only in a name is not applied to a line headed by its entry.
UniProt P0A1R6: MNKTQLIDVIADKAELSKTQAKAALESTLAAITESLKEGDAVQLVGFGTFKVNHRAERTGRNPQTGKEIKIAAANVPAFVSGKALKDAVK

Molecular target: SeHUα2 (HUα homodimer, unacetylated + pre-incubated with SeNatB without AcCoA) (Salmonella enterica Typhimurium) (UniProt P0A1R6)
Assay: EMSA
Details: 5-, 10-, 15-fold molar excess of HU, bound over 4, 5 and 3 times more than acetylated, 10 mM Tris-HCl pH 7.6, 15 mM NaCl, 15% glycerol, 0.1 mM EDTA, recombinant protein, label: 5' 6-FAM on one strand (hilA_R1_FAM primer), probe letters rebuilt from the primers and the genome

Sequence: TAAAATGTGGCATGATAATAGTGTATTCTCTTACAGGGTGAAAAGTTATAATAACTAATACAAGTCGTTAGGATAGAATCTACTGTTTCAGTAATTCTGCTGTTAGTACTAACGGTCAGGTTGAGCTTTTATTATGAGCTTAATGTCATATTCTACGGGCTCGGGTTTATATGTTTTTAACATTTGATTATTTAGCTTATGCCTGTGCTTTAAATAACTGACATGTTGGTAATAATATTGTTATAACTAACTGTGATTATCGAATGGACGCTGCCGTATATCCTGGTGCAGAGAGAGTCAGCGCCGGGCATCTAAATATTTACATATTTAACTTGGCCTCATTGCAATAG (double strand) [hilA promoter probe]
- binding result: binds
